A mixed list of measured activities; the numbers were collected in NIAID ChemDB.

Shared fields: growth or infection tests; species: Hepatitis B virus

Inhibition is in % at the dose shown (toxicity tests: loss of growth or viability). Blank or dashed fields: not listed here. a–b is a range or a potency band. ECn: concentration that inhibits the pathogen or its effect by n%. Conditions beyond the fields shown may differ between rows.

smiles	dose	read-out	cell line	read by	strain or isolate	result
COc1ccc(-n2c(C(=O)NCc3ccccc3)c3n(c2=O)CCN(c2ncnc4cc(Cl)ccc24)C3)cc1		EC50	HepG2.117	PCR		>5 µM
NC(=O)c1c(N)sc2c1CCCCC2	10 µM	inhibition	Huh7		gtD	43%
C[C@@H](NC(=O)c1c2n(c(=O)n1-c1ccc(OC3CC3)cc1)CCN(C(=O)c1ccc(Br)c(Cl)c1)C2)c1ccc(OC(F)(F)F)cc1		EC50	HepG2.117	PCR		0.5–5 µM
O=C(O[C@@H]1Cc2c(O)cc(O)cc2O[C@@H]1c1cc(O)c(O)c(O)c1)c1cc(O)c(O)c(O)c1	100 µM	inhibition		PCR		71.8%
C#C[C@H](NC(=O)C(=O)c1c(C)c(C(=O)Nc2ccc(F)c(C#N)c2)n(C)c1C)C(C)(C)C		EC50	HepG2.2.15	PCR		<0.001 µM
C[C@@H]1O[C@@H](O[C@@H]2Cc3c(O)cc(O)cc3O[C@@H]2c2ccc(O)c(O)c2)[C@H](O)[C@H](O)[C@H]1O	30 µM	inhibition	HepG2.2.15	ELISA / antigen		71.2%
C#CCNC(=O)C(=O)c1c(F)c(C(=O)Nc2ccc(F)c(C#N)c2)n(C)c1C		EC50	HepG2.2.15	PCR		0.001–0.0099 µM
O=C(NCc1ccc(OC(F)(F)F)cc1F)c1c2n(c(=O)n1-c1ccc(OC3CC3)cc1)CCN(C(=O)c1ccc(Br)c(Cl)c1)C2		EC50	HepG2.117	PCR		0.5–5 µM
COc1ccc2ccccc2c1/C=N/NC(=O)c1cc(O)c(O)c(O)c1	10 µM	inhibition	Huh7		gtD	>43%
Nc1nc(=O)c2ncn([C@@H]3O[C@H](CO)[C@@H](O)[C@H]3O)c2c(=O)[nH]1	10 µM	inhibition	2.2.15			10%
Cc1c(C(=O)C(=O)NC2(C#CC3(O)CC3)COC2)c(C)n(C)c1C(=O)Nc1ccc(F)c(C#N)c1		EC50	HepG2.2.15	PCR		0.001–0.0099 µM
COc1ccc2ccccc2c1/C=N/NC(=O)c1ccc(O)c(O)c1	10 µM	inhibition	Huh7		gtA	>43%
CC(C)NC(=O)c1c2n(c(=O)n1-c1ccccc1)CCN(C(=O)c1ccc(Br)c(Cl)c1)C2		EC50	HepG2.2.15	PCR		>5 µM
C=CCNC(=O)C(=O)c1c(F)c(C(=O)Nc2ccc(F)c(C#N)c2)n(C)c1C		EC50	HepG2.2.15	PCR		0.001–0.0099 µM
Cc1cc(C)c(C#N)c(=N)o1	10 µM	inhibition	Huh7		gtA	>43%